Experimental data from US10039758B2 (priority 2014, dated 2018).

Amino acid sequences for entries named in this document (tags omitted). Residues count along the entry.
UniProt P15917, 34-809 limits assumed: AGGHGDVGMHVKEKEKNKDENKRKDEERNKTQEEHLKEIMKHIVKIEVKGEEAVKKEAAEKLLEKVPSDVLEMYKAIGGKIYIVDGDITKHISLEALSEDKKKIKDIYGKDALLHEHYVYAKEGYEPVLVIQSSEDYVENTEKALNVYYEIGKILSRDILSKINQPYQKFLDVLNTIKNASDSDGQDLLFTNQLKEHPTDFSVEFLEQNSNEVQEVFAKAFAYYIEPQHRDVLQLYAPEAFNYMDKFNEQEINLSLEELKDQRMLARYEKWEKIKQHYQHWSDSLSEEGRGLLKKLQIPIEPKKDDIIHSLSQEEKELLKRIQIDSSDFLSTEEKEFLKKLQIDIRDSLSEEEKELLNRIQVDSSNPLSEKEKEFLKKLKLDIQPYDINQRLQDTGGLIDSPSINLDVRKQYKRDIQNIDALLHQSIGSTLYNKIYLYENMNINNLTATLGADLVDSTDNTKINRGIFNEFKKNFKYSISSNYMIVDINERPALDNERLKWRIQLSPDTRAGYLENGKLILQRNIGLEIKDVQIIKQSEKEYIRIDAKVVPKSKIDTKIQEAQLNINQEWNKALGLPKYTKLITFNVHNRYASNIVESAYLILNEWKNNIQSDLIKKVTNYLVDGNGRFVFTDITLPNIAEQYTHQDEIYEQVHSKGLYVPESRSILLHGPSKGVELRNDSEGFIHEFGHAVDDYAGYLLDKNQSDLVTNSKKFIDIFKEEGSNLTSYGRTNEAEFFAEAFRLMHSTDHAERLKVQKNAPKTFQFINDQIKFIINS

Target: LF (Bacillus anthracis, UniProt P15917)
Format: biochemical

In the case of surfen hydrate, the “proteolytic activity of LF on MAPKK peptide (emission at 523 nm)” value is reported as “no emission at 523 nm was observed”.
